Measured values from several laboratories, pooled; numbers as filed in NIAID ChemDB.

All rows: toxicity to cultured cells; cells: HEK 293; read-out: CC50

CCn: concentration that lowers growth or viability of the cells by n%.

SMILES,read by,result
CC(C)(CC(=O)O[C@H]1CC[C@]2(C)[C@H]3CC[C@@H]4[C@@H]5C(CC[C@@]4(C)[C@]3(C)CC[C@H]2C1(C)C)C1CC(C)(C)[C@@H]5OC1=O)C(=O)O,,>130 µM
Brc1c2ccccc2c(Br)c2nc(-c3ccco3)c(-c3ccco3)nc12,fluorescence,>20 µM
CC(C)N(Cc1cccc(OCCCCCC(=O)O)c1)C(=O)c1ccc(-c2ccc3c(c2)OCO3)cc1,,>20 µM
CC(C)(CC(=O)O[C@H]1CC[C@]2(C)[C@H]3CC[C@@H]4[C@@H]5C(CC[C@@]4(C)[C@]3(C)CC[C@H]2C1(C)C)[C@H]1CC(C)(C)[C@@H]5NC1=O)C(=O)O,,>150 µM
CCOC(=O)c1cc(O)c(O)c(O)c1,MTS,>200 µM
CCOC(=O)CCCCCOc1cccc(CN(C(=O)c2ccc(-c3cccc(Br)c3)cc2)C(C)C)c1,,>20 µM
COc1ccc2c(Cc3c4ccccc4cc4ccccc34)cncc2c1O,fluorescence,>50 µM
COc1c(C)c(O)c(C)c(O)c1C(=O)/C=C/c1ccccc1,sulforhodamine,2.39 µg/mL
O=C(N[C@H](CO)Cc1ccccc1)N(Cc1cccc(O)c1)N1CCOCC1,MTT,23.1 µM
CC(C)N(Cc1cccc(OCCCCCC(=O)OC(=O)O)c1)C(=O)c1ccc(-c2ccco2)cc1,,>20 µM
C=C(C)[C@@H]1CC[C@]2(C=O)CC[C@]3(C)[C@H](CC[C@@H]4[C@@]5(C)CC[C@H](OC(=O)CC(C)(C)C(=O)O)C(C)(C)[C@@H]5CC[C@]43C)[C@@H]12,,>300 µM
COCCN1CCn2cc(C(=O)NCc3ccc(F)cc3F)c(=O)c(O)c2C1=O,luminescence,0.1385 µM
CN[C@@H](CC1=c2c(O)c3c(c(O)c2N=C1)=NC=CS3(=O)=O)C(=O)O,,>40 µM
N=C(N)c1ccc(OCc2cccc(COc3ccc(C(=N)N)cc3)c2)cc1,absorbance,>100 µM
O=C(O)CC(O)CN=Cc1ccccc1O,,>100 µM
CN(C)N(Cc1ccccc1)C(=O)N[C@H](CO)Cc1ccccc1,MTT,57.2 µM
O=C1/C(=C/c2ccc(-c3cc(C(F)(F)F)ccc3Cl)o2)SC(=S)N1Cc1ccc(Cl)cc1,MTT,4.2 µM
CC(C)N(Cc1cccc(OCCCCCC(=O)OC(=O)O)c1)C(=O)c1ccc(-c2cccc(-c3ccccc3)c2)cc1,,>20 µM
CC(C)N1CC[C@H](OC(c2ccccc2)c2ccccc2)C[C@@H]1c1ccccc1,,69.38 µg/mL
Cc1ccc(C)c(SCc2nc3cc4ccccc4cc3nc2CSc2cc(C)ccc2C)c1,fluorescence,>20 µM
CC(C)Oc1cccc(-c2ccc(C(=O)N(Cc3cccc(OCCCCCC(=O)OC(=O)O)c3)C(C)C)cc2)c1,,>20 µM
O=C(N(Cc1ccccc1)[C@H](CO)Cc1ccccc1)N(Cc1ccccc1)N1CCCCC1,MTT,12.8 µM
CCOC(=O)COc1ccc(C(O)O)cc1,,>20 µM
C=C(C)[C@@H]1CC[C@]2(C=O)CC[C@]3(C)[C@H](CC[C@@H]4[C@@]5(C)CCC(OC(=O)CC(C)(C)C(=O)[O-])C(C)(C)[C@@H]5CC[C@]43C)[C@@H]12,,29 µM
CCOC(=O)CCCCCOc1cccc(CN(C(=O)c2ccc(-c3cccc(CC(=O)O)c3)cc2)C(C)C)c1,,>20 µM
O=C(O)c1ccc(-c2ccc(/C=C3\SC(=S)N(CCc4ccc(Cl)c(Cl)c4)C3=O)o2)cc1O,MTT,29 µM

Blank or dashed fields: not listed here. Rows are shuffled and stem from different studies.